Results deposited as PubChem BioAssay AID1259414 (Drosophila RNAi Screening Center, 2018).

- Assay: 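Fly genes that alter Wolbachia amount inside host cells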 (primary screen)
- Cells: Drosophila JW18 cells infected with Wolbachia
- Reagent: long dsRNA against Drosophila genes, 0.25 µg dsRNA per well of a 384-well plate
- Timing: 5 days
- Conditions: cells persistently infected with Wolbachia before knock-down; no added drug
- Measurement: 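Imaged fluorescence in situ signal for Wolbachia 23S rRNA per DAPI-counted host cell, given as a robust z-score within each plate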
- Reading the numbers: Wolbachia per cell robust z: higher = more Wolbachia per host cell than the plate typical
- Call rule: 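Active if absolute robust z reaches 1.5 in two or more of three replicates, leaving out multi- or no-target dsRNAs, genes unexpressed in JW18 and A1 wells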
In all, the deposit lists about 24,000 reagents; shown is an unselected part of those with a known target gene and a result. Of all reagents, about 1,210 (5%) are marked active. 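Inactive calls also include excluded dsRNAs with several or no targets, genes unexpressed in JW18, and well A1, regardless of score.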 Reagents against one gene are numbered here. A plus sign joins genes that one reagent is predicted to hit.

no.	predicted target	dsRNA no.	Wolbachia per cell robust z, rep 1	Wolbachia per cell robust z, rep 2	Wolbachia per cell robust z, rep 3	outcome
1	ppk15	1	-3.2	0.906	0.568	inactive
2	ppk15	2	0.859	-0.555	0.721	inactive
3	CG4250	1	0.509	-0.4	-0.473	inactive
4	mirr	1	0.729	0.803	0.377	inactive
5	mirr	2	-1.19	0.0786	0.279	inactive
6	CG14246	1	0.515	0.0204	-1.42	inactive
7	CG14246	2	-0.228	-1.12	-0.31	inactive
8	CG15143	1	-0.548	-0.633	-0.419	inactive
9	CG32248	1	0.00745	-0.37	-0.715	inactive
10	CG32248	2	0.734	-0.116	0.0217	inactive
11	CG15824	1	-3.2	0.122	-1.28	inactive
12	CG15824	2	1.24	0.337	-4.78	inactive
13	Lim1	1	-4.91	0.502	-0.855	inactive
14	Lim1	2	0.371	0.597	1.22	inactive
15	CG13544	1	0.24	0.138	-0.00155	inactive
16	CG13544	2	-1.22	-0.609	0.326	inactive
17	CG13895	1	0.401	1.34	0.891	inactive
18	Cdc5	1	3.4	2.77	4.19	active
19	Daao2	1	-0.12	-9.55	-0.121	inactive
20	CG4822	1	0.638	0.697	-0.587	inactive
21	Spn28Db	1	0.369	-1.94	-0.695	inactive
22	CG13473	1	0.732	0.126	-8.33	inactive
23	Idua	1	1.15	1.08	-11.2	inactive

2 of these entries in another layout:
{"predicted target": "Spn28Db", "dsRNA no.": 1, "Wolbachia per cell robust z, rep 1": 0.369, "Wolbachia per cell robust z, rep 2": -1.94, "Wolbachia per cell robust z, rep 3": -0.695, "outcome": "inactive"}
{"predicted target": "CG13473", "dsRNA no.": 1, "Wolbachia per cell robust z, rep 1": 0.732, "Wolbachia per cell robust z, rep 2": 0.126, "Wolbachia per cell robust z, rep 3": -8.33, "outcome": "inactive"}

The listing continues.
no.	predicted target	dsRNA no.	Wolbachia per cell robust z, rep 1	Wolbachia per cell robust z, rep 2	Wolbachia per cell robust z, rep 3	outcome
24	Ufd4	1	0.539	0.715	-2.93	inactive
25	Rfx	1	0.143	-1.26	0.315	inactive
26	TwdlK	1	-0.677	-0.163	-0.629	inactive
27	Tmtc3	1	0.141	0.781	0.311	inactive
28	CG10184	1	-0.903	-1.62	0.606	inactive
29	RfC38 + Nup160	1	-2.19	-0.00483	0.723	inactive
30	CG43774 + CG43773	1	-0.553	0.479	-0.464	inactive
31	CG43774 + CG43773	2	-0.77	-1.37	0.593	inactive
32	f-cup	1	-1.2	1.1	-0.676	inactive
33	f-cup	2	1.2	2.17	1.11	inactive
34	CG7341	1	-0.635	0.288	-0.5	inactive
35	CG40198	1	-0.924	-0.581	-1.14	inactive
36	Ttc26	1	0.394	0.151	1.1	inactive
37	Ttc26	2	-2.72	0.123	-0.142	inactive
38	Or67d	1	-0.31	0.313	-0.208	inactive
39	CG13332	1	-1.09	-0.301	-1.83	inactive
